Results of unrelated studies side by side (data: NIAID ChemDB).

Shared fields: whole-cell or culture tests; species: Candida albicans; read-out: MIC

Blank or dashed fields: not listed here.

SMILES,strain or isolate,result
CC1=C[C@H](OC(=O)c2ccccc2)C2[C@](C)(CC[C@@]2(O)C(C)C)C/C1=C/CO,SC5314,>50 µg/mL
O=C(Nc1ccc(Br)cc1)c1cccc(C(=O)Nc2ccc(Br)cc2)n1,-,75 µg/mL
CNc1ccc(C(=O)CC(O)CCC(C)C2OC(=O)CC(O)CC(=O)CC(O)CC(O)CC(O)CC(O)CC3(O)CC(O)C(C(=O)N4CCN(C)CC4)C(CC(O[C@@H]4O[C@H](C)[C@@H](O)[C@H](NC(=O)CN(C)C)[C@@H]4O)/C=C/C=C/C=C/C=C\C=C/C=C/C=C/C2C)O3)cc1,73,0.03 µg/mL
C[C@@H]1CC(=O)[C@H](C)[C@H](C)C1CCc1ccc2c(c1)C(=O)C=CC2=O,-,3 µg/mL
C[C@H](n1nnc(CCN2CCN(c3cccc(C(F)(F)F)c3)CC2)n1)[C@](O)(Cn1cncn1)c1ccc(F)cc1F,V-01-191A-261 (resistant),0.5 µg/mL
CC[C@@H]([C@H](C)O)n1ncn(-c2ccc(N3CCN(c4ccc(OC[C@@H]5CO[C@@](Cn6cncn6)(c6ccc(F)cc6F)C5)cc4)CC3)cc2)c1=O,160 strains,0.12 µg/mL
Clc1ccccc1CN(Cc1ccc(-c2ccccc2)cc1)n1ccnc1,-,33 µM
Cn1c(SCC(=O)c2ccc(Cl)cc2)nc2c(sc(=S)n2C)c1=O,ATCC 90018,256 µg/mL
COc1cc(C(=O)OC2CC(C)=CCC3(C)CCC(O)(C(C)C)C23)ccc1O,SC5314,>50 µg/mL
Cn1c(SCC(=O)c2ccccc2)nc2c(sc(=S)n2C)c1=O,ATCC 90018,256 µg/mL
COc1cc(C(=O)O[C@H]2C=C(C)C(=O)C[C@@]3(C)CC[C@@](O)(C(C)C)C23)ccc1O,SC5314,>50 µg/mL
CNc1ccc(C(=O)CC(O)CCC(C)C2OC(=O)CC(O)CC(=O)CC(O)CC(O)CC(O)CC(O)CC3(O)CC(O)C(C(=O)NCCN(C)C)C(CC(O[C@@H]4O[C@H](C)[C@@H](O)[C@H](NC(=O)CN5CCN(C)CC5)[C@@H]4O)/C=C/C=C/C=C/C=C\C=C/C=C/C=C/C2C)O3)cc1,200,0.12 µg/mL
CCCCc1ccc(NC(=S)c2cc(Cl)ccc2O)cc1,ATCC 44859,>125 µM
COc1ccccc1N1CCN(CCc2nnn([C@@H](C)[C@](O)(Cn3cncn3)c3ccc(F)cc3F)n2)CC1,V-01-191A-261 (resistant),8 µg/mL
CNc1ccc(C(=O)CC(O)CCC(C)C2OC(=O)CC(O)CC(=O)CC(O)CC(O)CC(O)CC(O)CC3(O)CC(O)C(C(=O)NCCN(C)C)C(CC(O[C@@H]4O[C@H](C)[C@@H](O)[C@H](NC(=O)CN5CCN(CCO)CC5)[C@@H]4O)/C=C/C=C/C=C/C=C\C=C/C=C/C=C/C2C)O3)cc1,200,0.03 µg/mL
CC1=C[C@H](OC(=O)c2ccccc2)C2[C@](C)(CC[C@@]2(O)C(C)C)CC1=O,SC5314,>50 µg/mL
CCn1c(SCC(=O)c2ccc(Br)cc2)nc2c(sc(=S)n2C)c1=O,ATCC 90018,128 µg/mL
Cc1ccc(CN(Cc2ccc(-c3ccccc3)cc2)n2ccnc2)cc1,-,33 µM
C[C@H](n1nnc(CCN2CCN(c3ccccn3)CC2)n1)[C@](O)(Cn1cncn1)c1ccc(F)cc1F,V-01-191A-261 (resistant),4 µg/mL
CC1=C[C@H](OC(=O)c2ccc(O)cc2)C2[C@](C)(CC[C@@]2(O)C(C)C)CC1=O,SC5314,>50 µg/mL
Oc1ccc(Cl)cc1C(=S)Nc1ccc(F)cc1,ATCC 44859,62.5 µM
CNc1ccc(C(=O)CC(O)CCC(C)C2OC(=O)CC(O)CC(=O)CC(O)CC(O)CC(O)CC(O)CC3(O)CC(O)C(C(=O)N4CCN(CCO)CC4)C(CC(O[C@@H]4O[C@H](C)[C@@H](O)[C@H](NC(=O)CCN5CCCCC5)[C@@H]4O)/C=C/C=C/C=C/C=C\C=C/C=C/C=C/C2C)O3)cc1,200,0.03 µg/mL
CCc1ccc(NC(=S)c2cc(Cl)ccc2O)cc1,ATCC 44859,31.3 µM
COc1ccccc1CN(Cc1ccc(-c2ccccc2)cc1)n1ccnc1,-,33 µM
CCn1cnc2c(sc(=S)n2C)c1=O,ATCC 90018,64 µg/mL
CC(C)[C@]1(C)CC[C@]2(C)C=CC(C)(C)C[C@H](OC(=O)c3ccc(O)cc3)C12,SC5314,>50 µg/mL
C[C@@H]1CC[C@H]2O[C@@]2(C)[C@@]1(C)CCc1ccc2c(c1)C(=O)C=CC2=O,-,6 µg/mL
CC(C)[C@]1(C)CC[C@]2(C)C=CC(C)(C)C[C@H](OC(=O)c3ccccc3)C12,SC5314,>50 µg/mL
Cc1ccc(C(=O)CSc2nc3c(sc(=S)n3C)c(=O)n2C)cc1,ATCC 90018,256 µg/mL
C[C@H](n1nnnc1CCN1CCN(c2cccc(Cl)c2)CC1)[C@](O)(Cn1cncn1)c1ccc(F)cc1F,-,2 µg/mL
COc1cc(C(=O)O[C@H]2C[C@@]3(C)O[C@H]3C[C@@]3(C)CC[C@@](O)(C(C)C)C23)ccc1O,SC5314,>50 µg/mL
COc1cc2cc(C(=O)N3CC4CC45C3=CC(=O)C3=C5C=C(C(=O)N4CCc5c4c(O)c(OC)c4[nH]c(SC(C)=O)cc54)C3)[nH]c2cc1O,ATCC 90018,0.0078 µg/mL
Nc1[nH]c(=O)ncc1F,2726,0.5 µg/mL
O=C(O)c1cccc(C(=O)NCc2ccco2)n1,-,226 µg/mL
C[C@H](n1nnnc1CCN1CCN(c2ccc([N+](=O)[O-])cc2)CC1)[C@](O)(Cn1cncn1)c1ccc(F)cc1F,-,2 µg/mL
Cc1ccccc1CN(Cc1ccc(-c2ccccc2)cc1)n1ccnc1,-,200 µM
Cc1c(O)cccc1C(=O)N[C@@H](CSc1ccccc1)[C@H](O)CN1C[C@H]2CCCC[C@H]2C[C@H]1C(=O)NC(C)(C)C,I9F,64 µg/mL
Cn1cncc1C(=O)c1nccc2c1[nH]c1ccccc12,-,>20 µg/mL

2 of the rows above, restated:

{"SMILES": "CC(C)[C@]1(C)CC[C@]2(C)C=CC(C)(C)C[C@H](OC(=O)c3ccccc3)C12", "strain or isolate": "SC5314", "result": ">50 µg/mL"}
{"SMILES": "CC(C)[C@]1(C)CC[C@]2(C)C=CC(C)(C)C[C@H](OC(=O)c3ccc(O)cc3)C12", "strain or isolate": "SC5314", "result": ">50 µg/mL"}

Neighbouring rows are from separate reports.